{
  "sequences": {"note": "Chains of the proteins cited; added tags and fusions are not shown. Lines headed by an entry give the natural chain unless they say otherwise; changes in a name come on top.", "UniProt P12389": "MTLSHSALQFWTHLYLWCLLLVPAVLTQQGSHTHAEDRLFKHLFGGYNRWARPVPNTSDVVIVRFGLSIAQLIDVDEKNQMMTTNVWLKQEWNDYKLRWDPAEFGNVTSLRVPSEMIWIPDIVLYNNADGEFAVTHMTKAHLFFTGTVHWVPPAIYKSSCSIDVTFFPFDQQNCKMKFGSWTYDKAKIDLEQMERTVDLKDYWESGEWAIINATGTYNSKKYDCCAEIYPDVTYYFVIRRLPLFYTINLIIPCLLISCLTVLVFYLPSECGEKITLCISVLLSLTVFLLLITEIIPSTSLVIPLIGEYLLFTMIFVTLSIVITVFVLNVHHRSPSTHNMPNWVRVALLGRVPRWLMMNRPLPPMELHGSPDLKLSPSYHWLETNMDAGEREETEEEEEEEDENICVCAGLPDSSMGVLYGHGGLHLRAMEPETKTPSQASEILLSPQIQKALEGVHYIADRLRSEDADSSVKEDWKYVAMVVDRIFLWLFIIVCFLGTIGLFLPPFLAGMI", "UniProt P12392, whole entry, looked up": "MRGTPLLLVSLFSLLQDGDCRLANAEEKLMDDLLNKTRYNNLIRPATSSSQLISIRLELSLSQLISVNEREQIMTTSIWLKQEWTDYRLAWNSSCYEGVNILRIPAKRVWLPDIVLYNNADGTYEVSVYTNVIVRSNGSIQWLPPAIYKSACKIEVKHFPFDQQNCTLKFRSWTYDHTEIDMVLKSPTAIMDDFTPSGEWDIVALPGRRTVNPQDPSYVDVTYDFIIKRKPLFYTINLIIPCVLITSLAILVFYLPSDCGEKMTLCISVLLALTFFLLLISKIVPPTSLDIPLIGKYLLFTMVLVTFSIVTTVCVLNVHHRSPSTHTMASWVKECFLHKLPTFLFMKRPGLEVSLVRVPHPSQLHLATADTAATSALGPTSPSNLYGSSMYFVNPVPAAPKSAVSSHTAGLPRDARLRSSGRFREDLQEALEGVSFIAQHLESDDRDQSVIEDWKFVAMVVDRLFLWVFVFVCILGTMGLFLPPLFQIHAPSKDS", "UniProt Q05941, whole entry, looked up": "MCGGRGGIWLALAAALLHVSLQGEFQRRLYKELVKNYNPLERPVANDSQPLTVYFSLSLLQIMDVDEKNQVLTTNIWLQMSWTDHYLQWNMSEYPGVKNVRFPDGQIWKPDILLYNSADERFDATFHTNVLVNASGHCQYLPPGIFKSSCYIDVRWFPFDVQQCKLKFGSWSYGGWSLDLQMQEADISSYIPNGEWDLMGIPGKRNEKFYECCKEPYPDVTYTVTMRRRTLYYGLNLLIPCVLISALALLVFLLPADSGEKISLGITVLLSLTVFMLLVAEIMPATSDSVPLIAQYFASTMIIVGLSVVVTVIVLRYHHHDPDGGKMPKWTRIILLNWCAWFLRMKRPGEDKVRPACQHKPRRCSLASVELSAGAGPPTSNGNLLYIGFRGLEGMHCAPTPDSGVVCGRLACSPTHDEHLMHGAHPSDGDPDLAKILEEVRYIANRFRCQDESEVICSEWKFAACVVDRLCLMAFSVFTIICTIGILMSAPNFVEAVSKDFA", "UniProt P43144": "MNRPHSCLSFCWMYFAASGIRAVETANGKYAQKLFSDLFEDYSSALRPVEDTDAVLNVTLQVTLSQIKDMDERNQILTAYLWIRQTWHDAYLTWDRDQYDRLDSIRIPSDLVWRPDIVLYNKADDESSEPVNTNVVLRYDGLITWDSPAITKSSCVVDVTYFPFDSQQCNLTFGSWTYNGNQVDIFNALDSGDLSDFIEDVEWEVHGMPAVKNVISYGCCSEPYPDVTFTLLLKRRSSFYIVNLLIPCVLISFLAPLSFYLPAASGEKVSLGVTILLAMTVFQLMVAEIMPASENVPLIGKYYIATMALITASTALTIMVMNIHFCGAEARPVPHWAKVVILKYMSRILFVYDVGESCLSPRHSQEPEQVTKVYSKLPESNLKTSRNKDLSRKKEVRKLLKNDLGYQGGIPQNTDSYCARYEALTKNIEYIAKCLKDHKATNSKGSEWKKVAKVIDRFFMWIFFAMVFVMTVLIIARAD", "UniProt Q9JLB5": "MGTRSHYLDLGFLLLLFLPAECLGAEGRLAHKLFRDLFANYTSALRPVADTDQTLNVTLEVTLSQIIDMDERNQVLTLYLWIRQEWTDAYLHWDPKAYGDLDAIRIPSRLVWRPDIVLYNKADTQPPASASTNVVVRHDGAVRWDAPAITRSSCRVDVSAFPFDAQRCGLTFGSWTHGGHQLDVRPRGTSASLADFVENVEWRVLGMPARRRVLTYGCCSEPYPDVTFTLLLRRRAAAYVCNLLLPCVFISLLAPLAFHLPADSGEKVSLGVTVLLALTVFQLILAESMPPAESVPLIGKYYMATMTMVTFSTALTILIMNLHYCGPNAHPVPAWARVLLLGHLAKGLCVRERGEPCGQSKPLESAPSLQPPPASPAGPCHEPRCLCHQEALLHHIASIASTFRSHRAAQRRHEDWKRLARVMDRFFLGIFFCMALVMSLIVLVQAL", "UniProt P09483": "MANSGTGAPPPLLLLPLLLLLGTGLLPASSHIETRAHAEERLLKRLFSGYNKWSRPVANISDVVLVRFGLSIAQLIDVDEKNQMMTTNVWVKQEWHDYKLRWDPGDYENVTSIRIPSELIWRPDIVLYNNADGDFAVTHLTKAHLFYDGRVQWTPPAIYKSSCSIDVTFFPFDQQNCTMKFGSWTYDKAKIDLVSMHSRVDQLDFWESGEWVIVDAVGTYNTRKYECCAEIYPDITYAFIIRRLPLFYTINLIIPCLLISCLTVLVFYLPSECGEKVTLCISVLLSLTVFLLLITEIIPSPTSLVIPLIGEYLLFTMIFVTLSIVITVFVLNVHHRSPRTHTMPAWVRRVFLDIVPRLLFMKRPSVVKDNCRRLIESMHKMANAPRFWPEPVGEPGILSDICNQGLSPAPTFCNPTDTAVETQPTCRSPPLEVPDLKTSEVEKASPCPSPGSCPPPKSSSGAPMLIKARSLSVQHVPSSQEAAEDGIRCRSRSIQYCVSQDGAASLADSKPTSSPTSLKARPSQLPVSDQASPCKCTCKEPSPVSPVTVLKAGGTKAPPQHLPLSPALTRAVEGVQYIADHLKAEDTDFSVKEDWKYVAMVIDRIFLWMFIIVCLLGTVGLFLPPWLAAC", "UniProt P12390, whole entry, looked up": "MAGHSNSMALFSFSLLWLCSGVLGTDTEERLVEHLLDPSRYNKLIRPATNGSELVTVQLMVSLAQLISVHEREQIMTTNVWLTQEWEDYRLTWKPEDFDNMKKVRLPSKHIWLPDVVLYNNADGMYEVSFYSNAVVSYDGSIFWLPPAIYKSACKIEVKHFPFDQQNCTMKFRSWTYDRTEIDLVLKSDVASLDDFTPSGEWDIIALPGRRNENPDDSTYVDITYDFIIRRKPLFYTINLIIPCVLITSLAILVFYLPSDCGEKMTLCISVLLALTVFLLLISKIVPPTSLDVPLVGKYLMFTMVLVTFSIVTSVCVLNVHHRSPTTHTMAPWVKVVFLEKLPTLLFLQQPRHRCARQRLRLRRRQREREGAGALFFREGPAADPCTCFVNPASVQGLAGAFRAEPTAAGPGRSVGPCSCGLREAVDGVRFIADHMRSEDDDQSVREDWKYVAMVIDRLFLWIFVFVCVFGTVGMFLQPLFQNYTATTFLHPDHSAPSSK", "UniProt P04757, whole entry, looked up": "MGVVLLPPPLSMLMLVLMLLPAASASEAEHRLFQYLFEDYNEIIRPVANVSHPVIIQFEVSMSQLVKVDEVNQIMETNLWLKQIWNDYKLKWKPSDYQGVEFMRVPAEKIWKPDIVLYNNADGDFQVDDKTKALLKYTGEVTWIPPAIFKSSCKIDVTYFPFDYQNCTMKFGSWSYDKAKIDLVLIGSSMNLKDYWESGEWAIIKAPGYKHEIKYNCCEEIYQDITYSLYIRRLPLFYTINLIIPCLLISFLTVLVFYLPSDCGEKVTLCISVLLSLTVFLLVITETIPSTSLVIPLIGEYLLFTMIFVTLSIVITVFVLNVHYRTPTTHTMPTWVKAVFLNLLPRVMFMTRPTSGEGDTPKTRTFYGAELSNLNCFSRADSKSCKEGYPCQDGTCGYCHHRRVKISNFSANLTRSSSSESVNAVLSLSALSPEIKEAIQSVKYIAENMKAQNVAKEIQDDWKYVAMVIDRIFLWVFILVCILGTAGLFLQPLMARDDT", "UniProt P43143, whole entry, looked up": "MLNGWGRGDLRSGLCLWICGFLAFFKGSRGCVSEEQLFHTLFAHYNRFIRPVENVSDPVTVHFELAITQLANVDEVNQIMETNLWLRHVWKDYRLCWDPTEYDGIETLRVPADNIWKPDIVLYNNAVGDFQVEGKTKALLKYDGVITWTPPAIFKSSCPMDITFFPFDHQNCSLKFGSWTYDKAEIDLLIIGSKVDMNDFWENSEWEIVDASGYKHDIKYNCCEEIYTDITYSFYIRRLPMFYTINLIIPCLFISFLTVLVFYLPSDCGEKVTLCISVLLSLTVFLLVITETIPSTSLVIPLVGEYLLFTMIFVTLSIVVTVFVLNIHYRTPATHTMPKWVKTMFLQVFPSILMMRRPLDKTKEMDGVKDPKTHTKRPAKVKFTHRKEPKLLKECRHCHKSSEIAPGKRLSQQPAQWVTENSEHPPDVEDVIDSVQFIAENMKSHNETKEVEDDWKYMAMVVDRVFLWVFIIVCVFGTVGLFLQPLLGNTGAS", "UniProt Q9UGM1": "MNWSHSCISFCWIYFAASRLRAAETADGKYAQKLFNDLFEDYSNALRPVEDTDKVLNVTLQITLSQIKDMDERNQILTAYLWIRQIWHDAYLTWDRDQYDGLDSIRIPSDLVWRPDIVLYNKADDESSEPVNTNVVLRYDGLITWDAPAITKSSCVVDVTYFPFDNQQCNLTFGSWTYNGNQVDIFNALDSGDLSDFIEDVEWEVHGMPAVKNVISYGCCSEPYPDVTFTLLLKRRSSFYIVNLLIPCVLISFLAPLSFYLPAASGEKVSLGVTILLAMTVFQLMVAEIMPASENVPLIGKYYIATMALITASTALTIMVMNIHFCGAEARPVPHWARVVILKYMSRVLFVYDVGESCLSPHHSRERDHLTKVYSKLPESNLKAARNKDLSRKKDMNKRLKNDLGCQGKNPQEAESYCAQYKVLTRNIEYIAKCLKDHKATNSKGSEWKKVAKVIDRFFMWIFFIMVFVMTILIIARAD", "UniProt Q9GZZ6": "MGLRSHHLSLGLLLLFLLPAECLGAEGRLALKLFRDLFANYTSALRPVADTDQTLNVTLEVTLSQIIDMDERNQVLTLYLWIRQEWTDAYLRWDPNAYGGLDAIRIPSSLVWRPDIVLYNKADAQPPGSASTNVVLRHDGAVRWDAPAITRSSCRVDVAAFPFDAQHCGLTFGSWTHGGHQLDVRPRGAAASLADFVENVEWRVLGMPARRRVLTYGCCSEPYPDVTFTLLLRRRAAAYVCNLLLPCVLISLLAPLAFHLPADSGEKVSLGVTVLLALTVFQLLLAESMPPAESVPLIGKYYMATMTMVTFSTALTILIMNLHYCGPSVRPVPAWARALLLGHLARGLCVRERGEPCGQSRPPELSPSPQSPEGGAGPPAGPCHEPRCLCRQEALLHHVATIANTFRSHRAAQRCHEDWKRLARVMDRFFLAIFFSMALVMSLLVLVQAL"},
  "source": "ChEMBL document CHEMBL5346973",
  "about": "(J Med Chem, 2023)",
  "key": {"[1]": {"target": "Neuronal acetylcholine receptor; alpha2/beta4 (Rattus norvegicus) (UniProt P12389+P12392)", "experiment": "Antagonist activity at rat alpha2beta4 nACh receptor expressed in Xenopus oocyte assessed as inhibition of acetylcholine-induced response at -70 mV holding potential by measuring ratio of IC50 by voltage-clamp based electrophysiological assay relative to GeXIVA[1,4]", "conditions": "filed as antagonist"}, "[2]": {"target": "Neuronal acetylcholine receptor subunit alpha-7 (Rattus norvegicus) (UniProt Q05941)", "experiment": "Antagonist activity at rat alpha7 nACh receptor expressed in Xenopus oocyte assessed as inhibition of acetylcholine-induced response at -70 mV holding potential by measuring ratio of IC50 by voltage-clamp based electrophysiological assay relative to GeXIVA", "conditions": "filed as antagonist"}, "[3]": {"target": "Nicotinic acetylcholine receptor alpha9/alpha10 (Rattus norvegicus) (UniProt P43144+Q9JLB5)", "experiment": "Antagonist activity at rat alpha9alpha10 nACh receptor expressed in Xenopus oocyte assessed as inhibition of acetylcholine-induced response at -70 mV holding potential by measuring ratio of IC50 by voltage-clamp based electrophysiological assay relative to GeXIVA", "type": "cell-based", "conditions": "filed as antagonist"}, "[4]": {"target": "Neuronal acetylcholine receptor; alpha4/beta2 (Rattus norvegicus) (UniProt P09483+P12390)", "experiment": "Antagonist activity at rat alpha4beta2 nACh receptor expressed in Xenopus oocyte assessed as inhibition of acetylcholine-induced response at -70 mV holding potential by measuring ratio of IC50 by voltage-clamp based electrophysiological assay relative to GeXIVA[1,4]", "conditions": "filed as antagonist"}, "[5]": {"target": "Neuronal acetylcholine receptor; alpha3/beta2 (Rattus norvegicus) (UniProt P04757+P12390)", "experiment": "Antagonist activity at rat alpha3beta2 nACh receptor expressed in Xenopus oocyte assessed as inhibition of acetylcholine-induced response at -70 mV holding potential by measuring ratio of IC50 by voltage-clamp based electrophysiological assay relative to GeXIVA[1,4]", "conditions": "filed as antagonist"}, "[6]": {"species": "Rattus norvegicus", "experiment": "Selectivity ratio of IC50 for rat alpha7 nACh receptor to IC50 for rat alpha9alpha10 nACh receptor"}, "[7]": {"target": "Neuronal acetylcholine receptor; alpha2/beta2 (Rattus norvegicus) (UniProt P12389+P12390)", "experiment": "Antagonist activity at rat alpha2beta2 nACh receptor expressed in Xenopus oocyte assessed as inhibition of acetylcholine-induced response at -70 mV holding potential by measuring ratio of IC50 by voltage-clamp based electrophysiological assay relative to GeXIVA[1,4]", "conditions": "filed as antagonist"}, "[8]": {"target": "Nicotinic acetylcholine receptor alpha6/alpha3/beta4 (Rattus norvegicus) (UniProt P04757+P12392+P43143)", "experiment": "Antagonist activity at rat alpha6/alpha3beta4 nACh receptor expressed in Xenopus oocyte assessed as inhibition of acetylcholine-induced response at -70 mV holding potential by measuring ratio of IC50 by voltage-clamp based electrophysiological assay relative to GeXIVA[1,4]", "conditions": "filed as antagonist"}, "[9]": {"target": "Neuronal acetylcholine receptor; alpha4/beta4 (Rattus norvegicus) (UniProt P09483+P12392)", "experiment": "Antagonist activity at rat alpha4beta4 nACh receptor expressed in Xenopus oocyte assessed as inhibition of acetylcholine-induced response at -70 mV holding potential by measuring ratio of IC50 by voltage-clamp based electrophysiological assay relative to GeXIVA[1,4]", "conditions": "filed as antagonist"}, "[10]": {"target": "Neuronal acetylcholine receptor; alpha3/beta4 (Rattus norvegicus) (UniProt P04757+P12392)", "experiment": "Antagonist activity at rat alpha3beta4 nACh receptor expressed in Xenopus oocyte assessed as inhibition of acetylcholine-induced response at -70 mV holding potential by measuring ratio of IC50 by voltage-clamp based electrophysiological assay relative to GeXIVA[1,4]", "conditions": "filed as antagonist"}, "[11]": {"target": "Neuronal acetylcholine receptor; alpha9/alpha10 (Homo sapiens) (UniProt Q9UGM1+Q9GZZ6)", "experiment": "Antagonist activity at human alpha9alpha10 nACh receptor expressed in Xenopus oocyte assessed as inhibition of acetylcholine-induced response at -70 mV holding potential by measuring ratio of IC50 by voltage-clamp based electrophysiological assay relative to GeXIVA[1,4]", "conditions": "filed as antagonist"}},
  "data": [
    {"smiles": "CC(C)[C@H](NC(=O)[C@@H]1CSSC[C@H](NC(=O)[C@@H](N)[C@@H](C)O)C(=O)N[C@@H](CCCNC(=N)N)C(=O)N[C@@H](CO)C(=O)N[C@@H](CO)C(=O)NCC(=O)N[C@@H](CCCNC(=N)N)C(=O)N[C@@H](Cc2ccc(O)cc2)C(=O)N[C@H]2CSSC[C@H](NC(=O)[C@H](Cc3ccc(O)cc3)NC(=O)[C@H](CCCNC(=N)N)NC(=O)[C@H](CCCNC(=N)N)NC(=O)[C@H](CCCNC(=N)N)NC(=O)[C@H](CCCNC(=N)N)NC(=O)[C@H](CC(=O)O)NC(=O)[C@H](Cc3ccc(O)cc3)NC(=O)[C@@H]3CCCN3C(=O)[C@H](CO)NC(=O)[C@H](CCCNC(=N)N)NC2=O)C(=O)N[C@@H](CCCNC(=N)N)C(=O)N[C@@H](CCCNC(=N)N)C(=O)N[C@@H](C)C(=O)N[C@@H]([C@@H](C)O)C(=O)N[C@@H](CC(=O)O)C(=O)N[C@@H](C)C(=O)N1)C(=O)O", "values": [
      {"measurement": "Ratio IC50", "setting": "[1]", "result": 0.9},
      {"measurement": "Ratio IC50", "setting": "[2]", "result": 0.5},
      {"measurement": "Ratio IC50", "setting": "[3]", "result": 0.1},
      {"measurement": "Ratio IC50", "setting": "[4]", "result": 4.3},
      {"measurement": "Ratio IC50", "setting": "[5]", "result": 1.2},
      {"measurement": "Ratio IC50", "setting": "[6]", "result": 971},
      {"measurement": "Ratio IC50", "setting": "[7]", "result": 6.8},
      {"measurement": "Ratio IC50", "setting": "[8]", "result": 3},
      {"measurement": "Ratio IC50", "setting": "[9]", "result": 2.3},
      {"measurement": "Ratio IC50", "setting": "[10]", "result": 1.8},
      {"measurement": "Ratio IC50", "setting": "[11]", "result": 0.1}
    ]}
  ]
}
